Compound potency records, mixed from different reports. Data source: NIAID ChemDB in PubChem.

Shared fields: growth or infection tests; species: Mycobacterium tuberculosis

ECn: concentration that inhibits the pathogen or its effect by n%. Percent inhibition refers to the dose given; in toxicity tests it is the harm to the cells. Conditions beyond the fields shown may differ between rows. MIC bound comes from a single tested concentration. An empty or dashed field is not shown. MIC50, MIC90 and the like: level of inhibition, or share of isolates inhibited.

compound	cell line	measure	dose	changes	method	strain or isolate	conditions	value
CC(=O)Nc1ccc(/C=N/NC(N)=S)cc1F		MIC90		Rifampicin-resistant	resazurin	H37Rv		<0.1 µg/mL
CC1(C)[C@H]2CC[C@@H](CNCCNCC(c3ccccc3)c3ccccc3)[C@@H]1C2		MIC						3.13 µM
O=C(N/N=C/c1ccc(O)cc1)c1ccc(Nc2ccccc2)cc1		MIC						>40 µg/mL
COC(=O)c1cc(Cl)ccc1OCC(O)CNc1ccc(Cl)cc1C(=O)c1ccccc1		MIC bound			resazurin	H37Rv		>6.25 µg/mL
O=C(NNC(=O)C(Cl)Cl)c1ccccc1		MIC						>200 µg/mL
CN(C)c1ccc(/C=N/N=C2c3ccccc3-c3ccccc32)c(Cl)c1		inhibition	12.5 µg/mL		BACTEC	H37Rv		-23%
CCc1cc(C(N)=S)ccn1		Mean MIC				H37Rv		0.94 µg/mL
O=c1[nH]c2cc([N+](=O)[O-])ccc2c(O)c1N=Nc1ccc(Br)cc1		inhibition	6.25 µg/mL		resazurin	H37Rv		100%
O=C(Nc1ccc(Cl)cc1)c1cc(Cl)ccc1OP(=O)(c1ccccc1)c1ccccc1		MIC				My 331/88	14 d	4 µM
Cc1ccc(/C=N/n2c(C)nc3scc(-c4ccco4)c3c2=O)cc1		MIC				CNCTC MY331/88		58 µM
Cc1onc(-c2ccccc2Cl)c1C(=O)N[C@@H]1C(=O)N2[C@@H]1SC(C)(C)[C@@H]2C(=O)O		Mean MIC				H37Rv		256 µg/mL
CCOc1ccc(C(=O)N/N=C/c2ccc(NC(C)=O)cc2)cc1		MIC						>200 µg/mL
O=C(O)c1cnccn1		MIC				H6927		480 µg/mL
CC1=C(C(=O)Nc2cc(C)ccc2C)C(c2cccc(Br)c2)C(C(=O)Nc2cc(C)ccc2C)=C(C)N1		MIC				H37Rv		>6.25 µg/mL
Cc1nc2scc(-c3ccco3)c2c(=O)n1NC(=O)c1ccc(Cl)cc1Cl		MIC				CNCTC MY331/88		5 µM
Cn1c(=O)c(N)c(-c2ccccc2)c2cc(Cl)ccc21		EC50				H37Rv		>6.25 µg/mL
c1ccc(CCCNCCNC(c2ccccc2)c2ccccc2)cc1		MIC						50 µM
COc1ccc(/C=N/N=c2/scc(-c3cc4cc(Br)ccc4oc3=O)n2C2CCCCC2)cc1OC		inhibition	6.25 µg/mL			H37Rv		2%
O=c1oc2ccc(-c3ccccc3)cc2c(O)c1N=Nc1c(Cl)cccc1Cl		MIC			resazurin	H37Rv		<6.25 µg/mL
CC(=O)OCC1=C(C(=O)O)N2C(=O)[C@@H](NC(=O)CSc3ccncc3)[C@H]2SC1		inhibition	12.5 µg/mL		BACTEC	H37Rv		25%
O=c1oc2ccc(Br)cc2cc1-c1cs/c(=N/N=C/c2ccc(F)cc2)n1C1CCCCC1		MIC				H37Rv		>6.25 µg/mL
Cc1nc2scc(-c3ccco3)c2c(=O)n1NC(=O)c1ccccc1		MIC				CNCTC MY331/88		50 µM
CC1S(=O)(=O)OCCCOS1(=O)=O		MIC			BACTEC	H37Rv		≥12.5 µg/mL
COc1cc(OC)c2cc([N+](=O)[O-])c3ccc(=O)oc3c2c1		MIC			resazurin	H37RvIr		12.5 µg/mL
Cc1nc2c(-c3ccccc3)c3cc(Cl)ccc3nc2o1		EC50				H37Rv		>6.25 µg/mL
CC(C)=NNS(=O)(=O)c1ccc(-c2ccc(S(=O)(=O)NN=C(C)C)cc2)cc1		MIC						>40 µg/mL
C[CH2][Sn]([F])([F])[CH2]C.Cc1cnc2c(ccc3c(C)c(C)cnc32)c1C		inhibition	12.5 µg/mL		BACTEC	H37Rv		100%
COc1ccc2cc([N+](=O)[O-])c3ccc(=O)oc3c2c1		MIC			resazurin	H37RvRr		50 µg/mL
COC(=O)C1C2C=CC(C1C(=O)OC)C1C(C(=O)NN)C(C(=O)NN)C21		inhibition	12.5 µg/mL		BACTEC	H37Rv		-25%
Cc1cccc(N=Nc2c(O)c3cccc([N+](=O)[O-])c3[nH]c2=O)c1		MIC			resazurin	H37Rv		<6.25 µg/mL
CC1=C(C(=O)Nc2cccc([N+](=O)[O-])c2)C(c2cccc(Br)c2)C(C(=O)Nc2cccc([N+](=O)[O-])c2)=C(C)N1		MIC				H37Rv		>6.25 µg/mL
CCOC(=O)c1nc(SC)sc1NC(=O)c1ccc(OC)cc1		inhibition	12.5 µg/mL		BACTEC	H37Rv		0%
O=c1ccc2ncccc2n1CCN1CCC(NCc2cc(Cl)c(Cl)cn2)CC1		MIC			resazurin	CDC1551		0.15 µg/mL
Cc1c(-[n+]2ccccc2)c(=O)[nH]c2ccccc12		EC50				H37Rv		>6.25 µg/mL
O=C(Nc1ccc(Br)cc1)c1cc(Cl)ccc1OP(=O)(Oc1ccccc1)c1ccccc1		MIC				My 331/88	7 d	4 µM
CSc1nc2n(Cc3cn(C)c(=O)n(C)c3=O)cc(C)cc-2c(=O)n1		MIC bound			BACTEC	H37Rv		>12.5 µg/mL
COc1ccccc1/C=N/N=c1\scc(-c2cc3cc(Br)ccc3oc2=O)n1C1CCCCC1		EC50				H37Rv		>6.25 µg/mL
CC(C)=NNC(=O)CC(=O)NN=C(C)C		MIC						>200 µg/mL
Cc1cc(S(=O)(=O)Nc2nc3cc(-c4ccc(Cl)cc4)sc3c(=O)n2N)c(S)cc1Cl		inhibition	6.25 µg/mL		resazurin	H37Rv		-8%
O=C(Nc1ccc(Br)cc1)c1cc(Cl)ccc1OP(=O)(OCc1ccccc1)OCc1ccccc1		MIC				My 331/88	14 d	16 µM
CC1=C(C(=O)Nc2cccc(C(F)(F)F)c2)C(c2cccc(Oc3ccccc3)c2)C(C(=O)Nc2cccc(C(F)(F)F)c2)=C(C)N1		MIC				H37Rv		>6.25 µg/mL
Cc1ccc(S(=O)(=O)C(=S)N(C)N(C)C)cc1		MIC			BACTEC	H37Rv		4 µg/mL
COc1ccc(CCNCCNCCc2ccc(Cl)cc2Cl)cc1		MIC						50 µM
NNC(=O)c1ccc([N+](=O)[O-])cc1		MIC						100 µg/mL
O=c1oc2ccc(Br)cc2cc1-c1cs/c(=N/N=C/c2ccc(Cl)c(Cl)c2)n1C1CCCCC1		EC50				H37Rv		>6.25 µg/mL
CC(C)(C)OC(=O)NC(CSCc1ccc(C(=O)c2ccccc2)cc1)C(=O)O		inhibition	6.25 µg/mL		resazurin	H37Rv		-2%
CCCCCCCCCCCNCCNCc1cc(OC)c(OC)c(OC)c1		MIC						50 µM
Cc1ccc(/C=N/N=c2/scc(-c3cc4cc(Br)ccc4oc3=O)n2C2CCCCC2)cc1		MIC				H37Rv		>6.25 µg/mL
Oc1ccc(O)c2nc3ccccc3nc12		inhibition	12.5 µg/mL		BACTEC	H37Rv		12%
O=c1oc2ccc(Br)cc2cc1-c1cs/c(=N/N=C/c2cc([N+](=O)[O-])ccc2O)n1C1CCCCC1		MIC				H37Rv		>6.25 µg/mL
CC1=C(C(=O)Nc2ccccc2C)C(c2cccc([N+](=O)[O-])c2)C(C(=O)Nc2ccccc2C)=C(C)N1		MIC				H37Rv		>12.5 µg/mL
Cc1ccc(/C=N/N=c2/scc(-c3cc4ccccc4oc3=O)n2C2CCCCC2)cc1		EC50				H37Rv		>6.25 µg/mL
O=C1c2cc(Br)ccc2OP(=O)(c2ccccc2)N1c1ccc(C(F)(F)F)cc1		MIC				7357/1998	21 d	1 µM
CC1=C(C(=O)Nc2cccc(C)c2)C(c2cccc([N+](=O)[O-])c2)C(C(=O)Nc2cccc(C)c2)=C(C)N1		MIC				H37Rv		>6.25 µg/mL
CC(=O)O[C@H]1C[C@@]2(C)[C@@H](C[C@@H](O)[C@H]3[C@@]4(C)CC[C@@H](O)[C@@H](C)[C@@H]4CC[C@@]32C)/C1=C(\CCC=C(C)C)C(=O)O		Mean MIC				H37Rv		8.5 µg/mL
CCCn1c2c(c(=O)n(CC)c1=O)S(=O)C(OCC)C(=O)N2		inhibition	6.25 µg/mL		resazurin	H37Rv		2%
NNC(=O)c1ccncc1		Median MIC				H37Ra		0.05 µg/mL
O=C1OCC23CC(=O)C(O)(c4oc(CO)cc(=O)c4O)C(CC12)O3		MIC bound			BACTEC	H37Rv		>12.5 µg/mL
CC(C)N=c1cc2n(-c3ccc(Cl)cc3)c3ccccc3nc-2cc1Nc1ccc(Cl)cc1		MIC			broth dilution / resazurin	MDR18		2 µg/mL
Cc1nn(C(=O)Cc2ccccc2)c2c1C(c1ccc(O)cc1)SC(N)=N2		inhibition	12.5 µg/mL		BACTEC	H37Rv		19%
Cc1nc2scc(-c3ccco3)c2c(=O)n1NC(=O)c1ccco1		MIC				CNCTC MY331/88		41 µM
COc1c(N2C[C@@H]3CCCN[C@@H]3C2)c(F)cc2c(=O)c(C(=O)O)cn(C3CC3)c12		MIC				Isolate TN6515		0.037 µg/mL
CC[C@H]1OC(=O)[C@H](C)[C@@H](O[C@H]2C[C@@](C)(OC)[C@@H](O)[C@H](C)O2)[C@H](C)[C@@H](O[C@@H]2O[C@H](C)C[C@H](N(C)C)[C@H]2O)[C@](C)(OC)C[C@@H](C)C(=O)[C@H](C)[C@@H](O)[C@]1(C)O		Mean MIC				H37Rv		26 µg/mL
COc1ccc(OC)c(/C=N/N=c2/scc(-c3cc4cc(Br)ccc4oc3=O)n2C2CCCCC2)c1		EC50				H37Rv		>6.25 µg/mL
NNC(=O)c1ccc(N)cc1O		MIC						10 µg/mL
CO[C@H]1/C=C/O[C@@]2(C)Oc3c(C)c(O)c4c(O)c(c(/C=N/N5CCN(C6CCCC6)CC5)c(O)c4c3C2=O)NC(=O)/C(C)=C\C=C\[C@H](C)[C@H](O)[C@@H](C)[C@@H](O)[C@@H](C)[C@H](OC(C)=O)[C@@H]1C		Mean MIC				H37Ra		≤0.006 µg/mL
CC1COc2c(N3CCN(C)CC3)c(F)cc3c(=O)c(C(=O)O)cn1c23		MIC			resazurin	Beijing 1237		0.3 µg/mL
CC(=O)Nc1ccc(/C=N/NC(=O)c2ccccc2Cl)cc1		MIC						100 µg/mL
COc1c2occc2c(Br)c2ccc(=S)oc12		inhibition	12.5 µg/mL		BACTEC	H37Rv		2%
CC(C)=Nc1c(-c2ccccc2)c2cc(Cl)ccc2[nH]c1=O		MIC				H37Rv		>6.25 µg/mL
Cc1cccc(C)c1NC1=CC(=O)C(=O)c2ccccc21	VERO	MIC			resazurin	H37Rv		3.13 µg/mL
CC1COc2c(N3CCN(C)CC3)c(F)cc3c(=O)c(C(=O)O)cn1c23		MIC				001-012 (drug-resistant)		1 µg/mL
O=C(Nc1ccc(C(F)(F)F)cc1)c1cc(Cl)ccc1OP(=O)(c1ccccc1)c1ccccc1		MIC				7357/1998	14 d	1 µM
COC(=O)C1=C(C)N(c2ccc(Cl)cc2)C(C)=C(C(=O)OC)C1c1ccc(Cl)cc1		MIC				H37Rv		>6.25 µg/mL
CCOC(=O)NC1C2CC(=O)OC(O2)C1OC(C)=O		MIC bound			BACTEC	H37Rv		>12.5 µg/mL
O=C1c2cc(Cl)ccc2OP(=O)(c2ccccc2)N1c1ccc(C(F)(F)F)cc1		MIC				Praha 1	21 d	1 µM
CC1=C(C(=O)Nc2ccccc2F)C(c2ccccc2)C(C(=O)Nc2ccccc2F)=C(C)N1		MIC				H37Rv		>6.25 µg/mL
O=c1oc2ccc(-c3ccccc3)cc2c(O)c1N=Nc1ccccc1[N+](=O)[O-]		inhibition	6.25 µg/mL		resazurin	H37Rv		25%
CCC1CN(c2c(F)cc3c(=O)c(C(=O)O)cn(C4CC4)c3c2OC)CCN1		MIC				Isolate TN5410		0.2 µg/mL
Cn1c(=O)nc2n(-c3ccc(Br)cc3)c3ccccc3nc-2c1=O		MIC bound			BACTEC	H37Rv		>12.5 µg/mL
CO[C@H]1/C=C/O[C@@]2(C)Oc3c(C)c(O)c4c(=O)c(c5oc6cc(N7CCN(CC(C)C)CC7)cc(=O)c6nc5c4c3=C2O)NC(=O)/C(C)=C\C=C\[C@H](C)[C@H](O)[C@@H](C)[C@@H](O)[C@@H](C)[C@H](OC(C)=O)[C@@H]1C		MIC				2230 (rifampicin-resistant)		0.125 µg/mL
Nc1nc(NCCCc2ccccc2)cc(=O)[nH]1		MIC bound			BACTEC	H37Rv		>12.5 µg/mL
CO[C@H]1/C=C/O[C@@]2(C)Oc3c(C)c(O)c4c(O)c(c5c(c4c3C2=O)NC2(CCN(CC(C)C)CC2)N=5)=NC(=O)/C(C)=C\C=C\[C@H](C)[C@H](O)[C@@H](C)[C@@H](O)[C@@H](C)[C@H](OC(C)=O)[C@@H]1C		MIC				Strain 80 (N518 deletion)		0.063 µg/mL
CCOc1c(I)cc(C(=O)NN)cc1[N+](=O)[O-]		MIC						>40 µg/mL

For reference, 5 entries again:

compound	cell line	measure	dose	changes	method	strain or isolate	conditions	value
O=c1oc2ccc(Br)cc2cc1-c1cs/c(=N/N=C/c2ccc(Cl)c(Cl)c2)n1C1CCCCC1		EC50				H37Rv		>6.25 µg/mL
CC1=C(C(=O)Nc2cccc(C)c2)C(c2cccc([N+](=O)[O-])c2)C(C(=O)Nc2cccc(C)c2)=C(C)N1		MIC				H37Rv		>6.25 µg/mL
Cc1cc(S(=O)(=O)Nc2nc3cc(-c4ccc(Cl)cc4)sc3c(=O)n2N)c(S)cc1Cl		inhibition	6.25 µg/mL		resazurin	H37Rv		-8%
CC1COc2c(N3CCN(C)CC3)c(F)cc3c(=O)c(C(=O)O)cn1c23		MIC				001-012 (drug-resistant)		1 µg/mL
COc1cc(OC)c2cc([N+](=O)[O-])c3ccc(=O)oc3c2c1		MIC			resazurin	H37RvIr		12.5 µg/mL